According to paper PMC8175350, “Drug repurposing screens identify chemical entities for the development of COVID-19 interventions” (Nature Communications, 2021):
Where a name gives a salt, the structure may show the parent alone. Read-outs that look alike come from different tables or passages of the source.

Columns and labels:
Type in all cases: cell-based
SARS-CoV-2 [1] = tested on: SARS-CoV-2
SARS-CoV-2 [2] = tested on: SARS-CoV-2; remark: listed apart in the source
SARS-CoV-2 [3] = tested on: SARS-CoV-2; remark: listed apart in the source
[4] = selectivity index, uninfected Calu-3 CC50 vs Calu-3 SARS-CoV-2 EC50
[5] = selectivity index, uninfected HeLa-ACE2 CC50 vs HeLa-ACE2 SARS-CoV-2 EC50
[6] = selectivity index, uninfected HeLa-ACE2 CC50 / HeLa-ACE2 SARS-CoV-2 EC50
[7] = selectivity index, uninfected Calu-3 CC50 / Calu-3 SARS-CoV-2 EC50

| Compound | Calu-3 SI (SARS-CoV-2 [1]; [4]) | Calu-3 SI (SARS-CoV-2 [1]; ratio CC50 / EC50) | other results |
| --- | --- | --- | --- |
| CSc1ccc(CN2CCCC(Nc3ccc4[nH]ncc4c3)C2)cc1 (centres unmarked) [INS-117548] | > 8.42 | – | – |
| CC(=O)O[C@H]1C[C@H](O[C@H]2[C@@H](O)C[C@H](O[C@H]3[C@@H](O)C[C@H](O[C@H]4CC[C@@]5(C)[C@H](CC[C@@H]6[C@@H]5C[C@@H](O)[C@]5(C)[C@@H](C7=CC(=O)OC7)CC[C@]65O)C4)O[C@@H]3C)O[C@@H]2C)O[C@H](C)[C@H]1O[C@@H]1O[C@H](CO)[C@@H](O)[C@H](O)[C@H]1O [Lanatoside C] | – | > 31.97 | HeLa-ACE2 SI (SARS-CoV-2 [2]): 6.56 |
| C[C@]12O[C@H](C[C@]1(O)CO)n1c3ccccc3c3c4c(c5c6ccccc6n2c5c31)CNC4=O [Lestaurtinib] | – | > 29.86 | HeLa-ACE2 SI (SARS-CoV-2 [2]): 1.39 |
| NC1(c2ccc(-c3nc4ccn5c(=O)[nH]nc5c4cc3-c3ccccc3)cc2)CCC1 [MK-2206] | – | – | HeLa-ACE2 SI (SARS-CoV-2 [2]; selectivity index, uninfected HeLa-ACE2 CC50 / SARS-CoV-2 EC50): > 20.63; TOA:HeLa-ACE2 EC50 Ratio (SARS-CoV-2 [3]): 8.511; Calu-3 SI (SARS-CoV-2 [1]; selectivity index, uninfected Calu-3 CC50 / SARS-CoV-2 EC50): < 1.78 |
| O[C@@H]1CO[C@H]2[C@@H]1OC[C@H]2Oc1nc2nc(-c3ccc(-c4ccccc4)cc3)c(Cl)cc2[nH]1 [MK-8722] | > 10.93 | – | HeLa-ACE2 SI (SARS-CoV-2 [2]; [5]): 3.90 |
| N=C(N)c1ccc2cc(OC(=O)c3ccc(N=C(N)N)cc3)ccc2c1 [Nafamostat mesylate] | – | > 1230.37 | – |
| NS(=O)(=O)c1ccc(N2N=C(C(F)(F)F)CC2c2c[nH]c3c(Cl)cccc23)cc1 (centres unmarked) [ON-09310] | – | – | HeLa-ACE2 SI (SARS-CoV-2 [2]; [6]): 2.20; Calu-3 SI (SARS-CoV-2 [1]; [7]): 9.34 |
| CC[C@@H]1/C=C/C=C/C[C@H](C)[C@@H](O)[C@](C)(O)C(=O)[C@H](C)[C@@H](O)[C@H](C)C(=O)[C@H](C)[C@@H](O)[C@H](C)/C=C/C(=O)O[C@H]2[C@@H](C)[C@@H](CC1)O[C@]1(O[C@H](C[C@H](C)O)[C@H](C)CC1=O)[C@@H]2C [Oligomycin B] | – | > 4376.07 | – |
| N=C(N)Nc1ccc(C(=O)Oc2ccc(S(N)(=O)=O)cc2)cc1 [Ono-3307] | > 18.64 | – | – |
| CCCCCCCCCCCCCC(=O)O[C@@H]1[C@@H](C)[C@@]2(O)[C@@H](C=C(CO)C[C@]3(O)C(=O)C(C)=C[C@@H]23)[C@@H]2C(C)(C)[C@]12OC(C)=O [Phorbol 12-myristate 13-acetate] | – | 1396.04 | HeLa-ACE2 SI (SARS-CoV-2 [2]): > 2.89 |
| CC(C)(C)c1ccc(CSc2cnn(C(C)(C)C)c(=O)c2Cl)cc1 [Pyridaben] | – | > 43.94 | – |
| CC(=O)N1C[C@H](O)C[C@H]1C(=O)N[C@@H](CCCNC(=N)N)C(=O)c1nc2ccccc2s1 [RWJ-56423] | > 24.33 | – | – |
| C=C(C)[C@]12C[C@@H](C)[C@@]34O[C@](Cc5ccccc5)(O[C@@H]1[C@@H]3C=C(COC(=O)Cc1ccc(O)c(OC)c1)C[C@]1(O)C(=O)C(C)=C[C@@H]41)O2 [Resiniferatoxin] | – | 19.13 | HeLa-ACE2 SI (SARS-CoV-2 [2]): 5.53 |
| Oc1nccc2cc(OC3CCNCC3)ccc12 [SAR-407899] | > 7.77 | – | HeLa-ACE2 SI (SARS-CoV-2 [2]; [5]): 4.03 |
| CCN(CC)CCCNc1nccc2c(C)c3[nH]c4ccc(O)cc4c3c(C)c12 [SR-26050] | – | – | HeLa-ACE2 SI (SARS-CoV-2 [2]; [6]): 1.68; Calu-3 SI (SARS-CoV-2 [1]; [7]): 11.60 |
| N=C(N)c1ccc2cc(OC(=O)c3ccc(CNC(=O)CCCC(=O)O)o3)ccc2c1 [TO-195] | > 45.45 | – | HeLa-ACE2 SI (SARS-CoV-2 [2]; [5]): 6.20 |
| Cn1c(C#N)ccc1-c1ccc2c(c1)C(C)(C)OC(=S)N2 [Tanaproget] | – | – | HeLa-ACE2 SI (SARS-CoV-2 [2]; [6]): 0.91; Calu-3 SI (SARS-CoV-2 [1]; [7]): > 7.90 |
| N=C(N)Nc1ncc(Cl)c2ccc(-c3cccc(C(=O)O)c3)cc12 [UK-356202] | > 15.59 | – | – |
| CN(C)C(C(=O)Nc1ccc2c(=O)[nH]ccc2c1)c1ccsc1 (centres unmarked) [Verosudil] | > 5.39 | – | – |
| CC(=N)N1CCC(Oc2ccc(N(Cc3ccc4ccc(C(=N)N)cc4c3)S(=O)(=O)CC(=O)O)cc2)CC1 [YM 60828] | > 9.40 | – | – |
| Antimycin A3 | – | > 110.21 | – |
| Deazaneplanocin A | – | > 182.13 | – |
| Mitoguazone | – | > 66.95 | – |
